Results of unrelated studies side by side (data: NIAID ChemDB).

Shared fields: growth or infection tests; agent: Candida albicans; endpoint: MIC

An empty or dashed field is not shown.

compound,setting,strain,result
COc1cc(O)c(C(C)=O)c(OC)c1,-,FCF-243,>500 µg/mL
Oc1cc(Cl)cc2cccnc12,24 h,ATCC 60913,12 µg/mL
Clc1ccc(CCC2CCCc3cnccc32)cc1,-,2402E,8 µg/mL
Oc1ccc(Cl)c2cccnc12,24 h,ATCC 60913,6.2 µg/mL
Cc1ccc2c(Br)cc(Br)c(O)c2n1,-,-,10 µg/mL
COC1=C(C)C(=O)c2cc(=O)n(C)cc2C1=O,-,7N,50 µg/mL
C[C@H]1OC(Oc2ccc3c(=O)c(-c4ccc(O)cc4)coc3c2)[C@@H](O)[C@@H](O)[C@H]1O,-,B02630,15 µg/mL
C/C(=N\NC(=S)Nc1ccc(C(=O)O)cc1)c1ccc(Cl)cc1,-,-,2.82 µM
CN1CCC2=C(CCCC2CCc2ccccc2Cl)C1,-,2381E,16 µg/mL
O=[N+]([O-])Sc1ccc2c(c1)-c1nn[se]c1CC2,-,-,12.5 µg/mL
Cn1[se]c2ncccc2c1=O,-,-,64 µg/mL
NC1CCN(c2c(F)cn3c(=O)c(C(=O)O)cc(C4CC4)c3c2F)C1,-,CCH442,>100 µg/mL
COc1ccc(CCC2CCCc3cnccc32)cc1,-,C316,125 µg/mL
CC1=C(N2CCC3CCNC32)C(F)=CN2C(=O)C(C(=O)O)=CC(C3CC3)C12,-,CCH442,>100 µg/mL
Cc1ccc2c(N3CCCCC3)cc(N3CCCCC3)c(O)c2n1,-,-,7.1 µg/mL
O=C(NO)c1ccc(NC(=S)N/N=C/c2ccccc2)cc1,-,-,1.54 µM
CCOP(=O)(OCC)C(F)(F)[C@@H]1[C@@H](O)[C@H](O)[C@H](CO)N1CCNC1[C@@H](CO)O[C@H](OC)[C@H](NC(C)=O)[C@H]1O,-,-,>128 µg/mL
Cc1c(N2CC3CCC(C)(N)C3C2)c(F)cn2c(=O)c(C(=O)O)cc(C3CC3)c12.Cl,-,CCH442,>100 µg/mL
CCn1c(=[Te])n(CCc2ccccc2)c2ccccc21,-,-,400 µg/mL
CCCCOC(=O)[C@]1(O)CC(OC(C)=O)[C@@H](OC(C)=O)C(OC(=O)/C=C/c2ccc(OC(C)=O)c(OC)c2)C1,-,ATCC 10231,>1000 µg/mL
COc1cc(O)c2c(c1)C(=O)c1c(cc3c(c1O)-c1c(cc(C)c(C(=O)N[C@H](CO)C(=O)O)c1O)[C@H](O[C@@H]1O[C@H](C)[C@H](O)[C@H](O)[C@H]1O)[C@H]3O)C2=O,-,ATCC 32354,3.1 µg/mL
O=C(NO)c1ccc(NC(=S)N/N=C/c2ccc(O)cc2)cc1,-,-,2.98 µM
COc1ccc(OC)c2c1CCc1[se]nnc1-2,-,-,12.5 µg/mL
C/C=C/c1ccc2oc(-c3ccc(O)c(OC)c3)c(C)c2c1,-,-,<256 µg/mL
O=[N+]([O-])c1cnc(/C=N/O)s1,-,E-3,125 µg/mL
c1ccc(CCN2CN(CCc3ccccc3)c3ccccc32)cc1,-,-,400 µg/mL
Cc1c(N2CC[C@H](C3CC3N)C2)c(F)cn2c(=O)c(C(=O)O)cc(C3CC3)c12,-,CCH442,>100 µg/mL
O=c1c2cccnc2[se]n1N(c1ccccc1)c1ccccc1,-,-,>500 µg/mL
O=C(O)c1ccc(NC(=S)N/N=C/c2cccc([N+](=O)[O-])c2)cc1,-,-,2.31 µM
CCn1c(=[Se])n(CCc2ccccc2)c2ccccc21,-,-,800 µg/mL
CN(Cc1ccc(C(C)(C)C)cc1)Cc1cccc2ccccc12,-,57 strains,>100 µg/mL
C[C@H]1[C@H](O)[C@@H](C)/C=C/C=C/C=C/C=C/C=C/C=C/C=C/[C@H](O[C@@H]2O[C@H](C)[C@@H](O)[C@H](N)[C@@H]2O)C[C@@H]2O[C@](O)(C[C@@H](O)C[C@@H](O)CC[C@H](O)[C@@H](O)C[C@@H](O)CC(=O)O[C@H]1C)C[C@H](O)[C@H]2C(=O)O,-,-,3.7 µM
O=C(O)c1ccc(NC(=S)N/N=C/c2ccc(OO)cc2)cc1,-,-,3.08 µM
COc1ccc2c(c1OC)C(=O)N1CCc3cc4c(cc3C1C2)OCO4,-,ATCC 10231,>1000 µg/mL
CCC(C)n1ncn(-c2ccc(N3CCN(c4ccc(OC[C@H]5CO[C@](Cn6cncn6)(c6ccc(Cl)cc6Cl)O5)cc4)CC3)cc2)c1=O,-,Isogenic isolate 17 CDR,0.25 µg/mL
O=NC(=O)c1ccc(NC(=S)NNc2c(O)[nH]c3ccccc23)cc1,-,-,1.44 µM
CC1=C(N2CCC(N)(CF)C2)C(F)=CN2C(=O)C(C(=O)O)=CC(C3CC3)C12,-,CCH442,>100 µg/mL
CN1CCC2=C(CCCC2CCc2cccc(Cl)c2)C1,-,C316,8 µg/mL
Cc1ccc(-n2[se]c3ccccc3c2=O)nc1,-,-,>500 µg/mL
CN(C/C=C/C#CC(C)(C)C)Cc1cccc2ccccc12,-,81 strains,9.59 µg/mL
CC1=C(N2CC[C@@H]([C@H](N)C(F)(F)F)C2)C(F)=CN2C(=O)C(C(=O)O)=CC(C3CC3)C12,-,CCH442,>100 µg/mL
Oc1cc(Cl)cc2cc(Cl)cnc12,48 h,ATCC 60913,12 µg/mL
Nc1nnc(-c2ncc([N+](=O)[O-])s2)s1,-,E-3,125 µg/mL
CN1CCC2=C(CCCC2CCc2ccccc2)C1,-,2005E,31 µg/mL
Clc1ccc(-c2c(C(c3ccccc3)n3ccnc3)cnn2-c2ccc(Cl)cc2)cc1,-,-,66.6 µM
O=[N+]([O-])c1cccc2c1CCc1snnc1-2,-,-,12.5 µg/mL
CCCCOC(=O)C1(OC(C)=O)CC(OC(C)=O)C(OC(=O)/C=C/c2ccc(OC(C)=O)c(OC)c2)C(OC(C)=O)C1,-,ATCC 10231,>1000 µg/mL
Cc1c(N2CCC[C@H]2CO)c(F)cn2c(=O)c(C(=O)O)cc(C3CC3)c12,-,CCH442,>100 µg/mL
CCCCOC(=O)[C@]1(O)CC(O)[C@@H](O)C(OC(=O)/C=C/c2ccc(O)c(OC)c2)C1,-,ATCC 10231,>1000 µg/mL
Cc1ccc2c(N3CCCC3)cc(N3CCCC3)c(O)c2n1,-,-,1.58 µg/mL
Cc1c(N2CC(N)C(O)C2)c(F)cn2c(=O)c(C(=O)O)cc(C3CC3)c12.Cl,-,CCH442,100 µg/mL
O=c1c2cccnc2[se]n1N(c1ccccc1)c1cc(Cl)ccn1,-,-,>500 µg/mL
Cc1c(N2CC[C@@H](CO)C2)c(F)cn2c(=O)c(C(=O)O)cc(C3CC3)c12,-,CCH442,6.2 µg/mL
CN1CCC2=C(CCCC2CCc2ccc(Cl)c(Cl)c2)C1,-,C316,16 µg/mL
CN1Cc2c(ccc3c2OCO3)-c2ccc3cc4c(cc3c21)OCO4,-,ATCC 10231,18.7 µg/mL
CCN1c2ccccc2N(CCc2ccccc2)C1C(=S)S,-,-,400 µg/mL
CC(C/C=C/C=C/CC/C=C\C=C\CCC(C)(C)C)C(O)C(O)C(O)C(O)C(O)C1OC(=O)C(O)C1O,-,A9540,3.1 µg/mL
C=C(Cl)/C=C/[C@H](O)CC(=C)C[C@H]1OC2[C@@H](O)[C@]3(O)C[C@@H](O)[C@H](C)[C@H](CCC/C=C\[C@@H]4C[C@@H](O)C[C@]5(C[C@H](OC)CC(CC(=O)[C@@H](C)[C@H](OC(C)=O)[C@@H](C)C(=C)C[C@@H]6C[C@@](C)(O)C[C@]7(C[C@H](OC(C)=O)CC(CC(=O)O[C@@H]([C@@H]1O)[C@H]2C)O7)O6)O5)O4)O3,-,ATCC 90028,6.25 µg/mL
CC(CCc1ccccc1)C1=CCN(C)CC1,-,C316,31 µg/mL
CCN1c2ccccc2N(CCc2ccccc2)C1C(=S)Nc1ccccc1,-,-,400 µg/mL
c1ccc(-c2c(C(c3ccccc3)n3ccnc3)cnn2-c2ccccc2)cc1,-,-,22 µM
CC1CCCN(CC(C)Cc2ccc(C(C)(C)C)cc2)C1,-,29-3-102,43.1 µM

A second listing of 7 rows from above:

{"compound": "NC1CCN(c2c(F)cn3c(=O)c(C(=O)O)cc(C4CC4)c3c2F)C1", "strain": "CCH442", "result": ">100 µg/mL"}
{"compound": "CN1Cc2c(ccc3c2OCO3)-c2ccc3cc4c(cc3c21)OCO4", "strain": "ATCC 10231", "result": "18.7 µg/mL"}
{"compound": "O=C(O)c1ccc(NC(=S)N/N=C/c2ccc(OO)cc2)cc1", "result": "3.08 µM"}
{"compound": "CN1CCC2=C(CCCC2CCc2cccc(Cl)c2)C1", "strain": "C316", "result": "8 µg/mL"}
{"compound": "CCCCOC(=O)[C@]1(O)CC(OC(C)=O)[C@@H](OC(C)=O)C(OC(=O)/C=C/c2ccc(OC(C)=O)c(OC)c2)C1", "strain": "ATCC 10231", "result": ">1000 µg/mL"}
{"compound": "COc1ccc(CCC2CCCc3cnccc32)cc1", "strain": "C316", "result": "125 µg/mL"}
{"compound": "Oc1ccc(Cl)c2cccnc12", "setting": "24 h", "strain": "ATCC 60913", "result": "6.2 µg/mL"}

Rows are shuffled and stem from different studies.